Experimental data taken from paper PMC11112747, “Cyanovirin-N Binding to N-Acetyl-D-glucosamine Requires Carbohydrate-Binding Sites on Two Different Protomers” (Biochemistry, 2024).

Legend:
[1] = ITC binding of CV-N, CVN2 and variants to GlcNAc; details: for stoichiometry / enthalpy ΔH / entropy TΔS / free energy ΔG: one-set of sites model, T = 298 K; for enthalpy ΔH / entropy TΔS / free energy ΔG: PBS pH 7.4; for -TΔS1 / N1 / -TΔS2 / N2: two-sets of sites model; for -TΔS1: site 1; for N1: site 1 stoichiometry; for -TΔS2: site 2; for N2: site 2 stoichiometry
[2] = ITC binding of CV-N, CVN2 and variants to ManNAc; details: for -TΔS1: site 1; for -TΔS2: site 2; for N2: site 2 stoichiometry
Protocol: Calorimetric titrations were carried out using an ITC200 device (Malvern Panalytical, Malvern, UK). The concentration of mutant E41T dimer and monomeric variants CVN-E41T or CVN-E41A was 200 μM titrant of these proteins to the ligands ManNAc and GlcNAc in the cell. […] The protein concentrations were 44 μM (304 μM) CVN2L0 and 465 μM CVN-E41T in the ManNAc experiments, respectively, and determined to be between 200 and 300 μM for the GlcNAc experiment. Aliquots (2 μL) of CV-N titrant were injected at 2 min intervals into the sugar solution in the calorimetry cell with a total of 19 injections from a stirring syringe (operated at 750 rpm). Controls were prepared with identical amounts of titrant injected into PBS buffer at pH 7.4 at 298 K, and control values were subtracted from the results of the actual experiments. The values for enthalpy, binding affinity, and stoichiometry from the binding curve and the free energy and entropy of interaction were calculated using Microcal Origin v7.0 (OriginLab, Northampton, Massachusetts, USA) according to the standard expressions: ΔG = −RTln Ka, and ΔG = ΔH–TΔS.

[3] = one-set of sites model, T = 298 K, PBS pH 7.4

| Molecule | stoichiometry [1] | enthalpy ΔH [2, 3] | entropy TΔS [2, 3] | -TΔS1 ([2]; two-sets of sites model) | N1 ([2]; two-sets of sites model, site 1 stoichiometry) | -TΔS2 ([2]; two-sets of sites model) | N2 ([2]; two-sets of sites model) | enthalpy ΔH [1] | entropy TΔS [1] | free energy ΔG [1] | -TΔS1 [1] | N1 [1] | -TΔS2 [1] | N2 [1] |
| --- | --- | --- | --- | --- | --- | --- | --- | --- | --- | --- | --- | --- | --- | --- |
| CVN-E41T: CV-N binding-site variant with single-point mutation E41T, generated by alanine to threonine substitution (protein, UniProt P81180 1-101, looked up, variant E41T) Cyanovirin-N: LGKFSQTCYNSAIQGSVLTSTCERTNGGYNTSSIDLNSVITNVDGSLKWQPSNFIETCRNTQLAGSSELAAECKTRAQQFVSTKINLDDHIANIDGTLKYE | 1 | -80.0 ± 0.0 kcal/mol | -74.2 ± 0.7 kcal/mol | 30.5 kcal/mol | 4 | 73.5 kcal/mol | 4 | – | – | – | – | – | – | – |
| mutant E41T dimer: CVN-E41T mutant expressed with a tandem repeat of two sequences (stable dimer) (protein, UniProt P81180 1-101, looked up, variant E41T, tandem repeat dimer) Cyanovirin-N: LGKFSQTCYNSAIQGSVLTSTCERTNGGYNTSSIDLNSVITNVDGSLKWQPSNFIETCRNTQLAGSSELAAECKTRAQQFVSTKINLDDHIANIDGTLKYE | N = 1 | – | – | – | – | – | – | –80.0 ± 0.0 kcal/mol | –73.3 ± 0.78 kcal/mol | –6.68 ± 0.79 kcal/mol | – | – | – | – |
| CVN2: tandem-linked dimeric CVN2 with zero-linker length; tandem repeat of two CV-N molecules (protein, UniProt P81180 1-101, looked up, tandem repeat dimer, zero linker, tandem-linked dimeric CVN2 with zero-linker length; tandem repeat of two CV-N molecules) Cyanovirin-N: LGKFSQTCYNSAIQGSVLTSTCERTNGGYNTSSIDLNSVIENVDGSLKWQPSNFIETCRNTQLAGSSELAAECKTRAQQFVSTKINLDDHIANIDGTLKYE | 4.33 ± 0.335 | – | – | 69.8 kcal/mol | – | 67.5 kcal/mol | – | –69.9 ± 17.2 kcal/mol | –61.7 ± 17 kcal/mol | – | -7.21 kcal/mol | 1 | 32.5 kcal/mol | 4 |
| Cyanovirin-N (protein, UniProt P81180 1-101, looked up) Cyanovirin-N: LGKFSQTCYNSAIQGSVLTSTCERTNGGYNTSSIDLNSVIENVDGSLKWQPSNFIETCRNTQLAGSSELAAECKTRAQQFVSTKINLDDHIANIDGTLKYE | – | – | – | 54.6 kcal/mol | – | 74.1 kcal/mol | 3 | – | – | – | 73.9 kcal/mol | 1 | 73.9 kcal/mol | 1 |
| CVN-E41A: monomeric CV-N variant with Glu41 substituted by alanine (protein, UniProt P81180 1-101, looked up, variant E41A) Cyanovirin-N: LGKFSQTCYNSAIQGSVLTSTCERTNGGYNTSSIDLNSVIANVDGSLKWQPSNFIETCRNTQLAGSSELAAECKTRAQQFVSTKINLDDHIANIDGTLKYE | 4.73 ± 1.85 | – | – | – | – | – | – | –78.9 ± 1.6 kcal/mol | –71.85 ± 2.05 kcal/mol | –7.06 ± 0.44 kcal/mol | – | – | – | – |
